Source: ChEMBL document CHEMBL1148631, “Synthesis of cyclopentenyl carbocyclic nucleosides as potential antiviral agents against orthopoxviruses and SARS” (J Med Chem, 2006)

Experiments:
Cowpox virus [1] = experiment: Antiviral activity against Cowpox virus; assay type: functional, organism-based
Vaccinia virus = experiment: Selective index against Vaccinia virus; assay type: functional, Orthopoxvirus vaccinia
Cowpox virus [2] = experiment: Selective index against Cowpox virus; assay type: functional

| SMILES | EC50 (Cowpox virus [1]) [µM] | Selectivity index (Vaccinia virus) | Selectivity index (Cowpox virus [2]) |
| --- | --- | --- | --- |
| Nc1ccn(C[C@@H](CO)OCP(=O)(O)O)c(=O)n1 | 15 |  |  |
| Nc1ccn(C[C@@H](CO)OCP(=O)(O)O)c(=O)n1.O.O |  | > 52 | > 21 |
